PubChem BioAssay AID504761 | Drosophila RNAi Screening Center | 2011

Screen: 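Genome-wide fly cell screen for genes dengue virus requires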 (primary screen)
Cells: D.Mel-2 cells from Drosophila
Knock-down reagent: long dsRNA against Drosophila genes
Treatment: infection with dengue virus type 2; dose and infection time not stated
Measured: 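Cells stained for dengue envelope protein and imaged; percent of infected cells per well on duplicate plates, ranked by infection, with stained nuclei counted for cell number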
Reading the numbers: infection score: higher = more virus-infected cells; cell count: higher = more cells in the well
Active means: 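Low infection ranks in the two replicates (chance level up to 0.065) followed by a retest with a 1.5-fold or larger significant decrease, p below 0.05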
Calls: active = confirmed: knock-down lowers infection; inactive = not picked or not confirmed
In all, the deposit lists about 22,000 reagents; below is an unselected part of those with a known target gene and a result. In the full data, 116 (0.52%) are marked active. 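Calls depend on retest data that are not deposited; infection was ranked per plate without normalising between plates; the unit of the infection score is not given.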 The raw values are shown without normalisation. Not all columns of the deposit are shown. Not given: the amount of reagent, the time to read-out.

With FER [DRSC12735], what was measured?
infection score, replicate 1: 0.23; cell count, replicate 1: 5964; Call: inactive

How did the screen score FER [DRSC16673]?
infection score, replicate 1: 0.9; cell count, replicate 1: 7254; Call: inactive

With FER [DRSC29894], how do the results read?
infection score, replicate 1: 7.11; cell count, replicate 1: 6149; Call: inactive

For Cyp4e3 [DRSC03306], what was measured?
infection score, replicate 1: 12.6; cell count, replicate 1: 5689; Call: inactive

What did the screen give for Cyp4e3 [DRSC26425]?
infection score, replicate 1: 1.82; cell count, replicate 1: 5374; Call: inactive

With Gyc32E [DRSC01154], what was measured?
infection score, replicate 1: 2.11; cell count, replicate 1: 5840; Call: inactive

What is on record for Gyc32E [DRSC29757]?
infection score, replicate 1: 4.76; cell count, replicate 1: 6170; Call: inactive

What did the screen give for CG18048 [DRSC12573]?
infection score, replicate 1: 3.04; cell count, replicate 1: 6772; Call: inactive

With CG18048 [DRSC29053], how do the results read?
infection score, replicate 1: 10.3; cell count, replicate 1: 4856; Call: inactive

For caup [DRSC23050], how do the results read?
infection score, replicate 1: 2.76; cell count, replicate 1: 6276; Call: inactive

How did the screen score aop [DRSC22999]?
infection score, replicate 1: 0.95; cell count, replicate 1: 5656; Call: inactive

What did the screen give for aop [DRSC25805]?
infection score, replicate 1: 4.82; cell count, replicate 1: 6310; Call: inactive

Look-ups from above.
Entry of FER [DRSC16673] in “Call”: inactive
Result for Cyp4e3 [DRSC03306] under “Call”: inactive
